For experiment [1], the system named is Acinetobacter baumannii NCTC 13420. As to conditions: A. baumannii NCTC 13420; 16-20 h incubation; mode of three experiments.
The subject of experiment [2] is Acinetobacter baumannii ATCC 19606. As to conditions: A. baumannii ATCC 19606; 16-20 h incubation; mode of three experiments.
Experiment [3] concerns Enterobacter cloacae NCTC 13406. The conditions noted are these: E. cloacae NCTC 13406; 16-20 h incubation; mode of three experiments.
Experiment [4] relates to Escherichia coli ATCC 25922. The conditions noted are these: E. coli ATCC 25922; 16-20 h incubation; mode of three experiments.
Experiment [5] relates to Haemophilus influenzae ATCC 49247. The conditions noted are these: H. influenzae ATCC 49247; 16-20 h incubation; mode of three experiments.
Experiment [6] concerns Klebsiella pneumoniae ATCC 700603. The conditions noted are these: K. pneumoniae ATCC 700603; 16-20 h incubation; mode of three experiments.
Experiment [7] relates to Pseudomonas aeruginosa ATCC 27853. As to conditions: P. aeruginosa ATCC 27853; 16-20 h incubation; mode of three experiments.
Experiment [8] concerns Staphylococcus aureus ATCC 29213. As to conditions: S. aureus ATCC 29213; 16-20 h incubation; mode of three experiments.
Experiment [9] concerns Streptococcus pneumoniae ATCC 49619. As to conditions: S. pneumoniae ATCC 49619; 16-20 h incubation; mode of three experiments.
Another experiment relates to P. aeruginosa NCTC 13437. Description: MIC broth microdilution, P. aeruginosa NCTC 13437. As to conditions: 16-20 h incubation, mode of three experiments.

This is a selection: effects in other tests are not listed, and their absence says nothing.

Regarding `COc1cnc2ccc(=O)n(CCN3CC[C@@H]4[C@H](C3)OC(=O)N4c3ccc4c(n3)NC(=O)CO4)c2c1` (relative stereo), the MIC result is reported as “A (an MIC (in μg/mL) of less or equal to 1 is assigned the letter A)” in experiment [1]; “B (a MIC of from 1 to 10 is assigned the letter B)” in [2]; “C (a MIC of from 10 to 100 is assigned the letter C)” in experiment [3]; “B (a MIC of from 1 to 10 is assigned the letter B)” in experiment [4]; “A (an MIC (in μg/mL) of less or equal to 1 is assigned the letter A)” in [5]; “C (a MIC of from 10 to 100 is assigned the letter C)” in experiment [6]. Moreover, the MIC entry in experiment [7] is “C (a MIC of from 10 to 100 is assigned the letter C)”; in [8], “A (an MIC (in μg/mL) of less or equal to 1 is assigned the letter A)”; in [9], “A (an MIC (in μg/mL) of less or equal to 1 is assigned the letter A)”; against P. aeruginosa NCTC 13437, “B (a MIC of from 1 to 10 is assigned the letter B)”.

On to `COc1ccc2ccc(=O)n(CCN3CC[C@@H]4[C@H](C3)OC(=O)N4c3ccc4c(n3)NC(=O)CO4)c2n1` (relative stereo), for which the MIC entry in experiment [1] is “A (an MIC (in μg/mL) of less or equal to 1 is assigned the letter A)”; in experiment [2], “A (an MIC (in μg/mL) of less or equal to 1 is assigned the letter A)”; in experiment [3], “B (a MIC of from 1 to 10 is assigned the letter B)”; in [4] it was “B (a MIC of from 1 to 10 is assigned the letter B)”; in experiment [5] it was “B (a MIC of from 1 to 10 is assigned the letter B)”; in [6], “C (a MIC of from 10 to 100 is assigned the letter C)”. Further, the MIC entry is reported as “C (a MIC of from 10 to 100 is assigned the letter C)” in [7], “A (an MIC (in μg/mL) of less or equal to 1 is assigned the letter A)” in experiment [8], “A (an MIC (in μg/mL) of less or equal to 1 is assigned the letter A)” in [9] and “B (a MIC of from 1 to 10 is assigned the letter B)” against P. aeruginosa NCTC 13437.

In the case of `COc1ncc2ccc(=O)n(CCN3CC[C@@H]4[C@H](C3)OC(=O)N4c3ccc4c(n3)NC(=O)CO4)c2n1` (relative stereo), the MIC entry in experiment [1] is on record as “B (a MIC of from 1 to 10 is assigned the letter B)”; in experiment [2], “B (a MIC of from 1 to 10 is assigned the letter B)”; in experiment [3], “C (a MIC of from 10 to 100 is assigned the letter C)”; in [4], “C (a MIC of from 10 to 100 is assigned the letter C)”; in [5] it was “B (a MIC of from 1 to 10 is assigned the letter B)”; in experiment [6] it was “C (a MIC of from 10 to 100 is assigned the letter C)”. Also, the MIC result in experiment [7] is recorded as “C (a MIC of from 10 to 100 is assigned the letter C)”; in experiment [8], “A (an MIC (in μg/mL) of less or equal to 1 is assigned the letter A)”; in experiment [9], “A (an MIC (in μg/mL) of less or equal to 1 is assigned the letter A)”; against P. aeruginosa NCTC 13437, “C (a MIC of from 10 to 100 is assigned the letter C)”.

Consider `COc1ncc2ccc(=O)n(CCN3CC[C@@H]4[C@@H](C3)OC(=O)N4c3ccc4c(n3)NC(=O)CO4)c2n1` (relative stereo), for which the MIC result is “B (a MIC of from 1 to 10 is assigned the letter B)” in [1]; “B (a MIC of from 1 to 10 is assigned the letter B)” in experiment [2]; “C (a MIC of from 10 to 100 is assigned the letter C)” in experiment [3]; “C (a MIC of from 10 to 100 is assigned the letter C)” in experiment [4]; “B (a MIC of from 1 to 10 is assigned the letter B)” in [5]; “C (a MIC of from 10 to 100 is assigned the letter C)” in experiment [6]. The MIC result in [7] is listed as “C (a MIC of from 10 to 100 is assigned the letter C)”; in [8], “A (an MIC (in μg/mL) of less or equal to 1 is assigned the letter A)”; in experiment [9], “A (an MIC (in μg/mL) of less or equal to 1 is assigned the letter A)”; in the experiment on P. aeruginosa NCTC 13437, “C (a MIC of from 10 to 100 is assigned the letter C)”.

On to `N#Cc1ccc2ccc(=O)n(CCN3CC[C@@H]4[C@H](C3)OC(=O)N4c3ccc4c(n3)NC(=O)CO4)c2c1` (relative stereo), for which the MIC entry in experiment [1] was “A (an MIC (in μg/mL) of less or equal to 1 is assigned the letter A)”; in experiment [2], “A (an MIC (in μg/mL) of less or equal to 1 is assigned the letter A)”; in experiment [3], “B (a MIC of from 1 to 10 is assigned the letter B)”; in experiment [4], “A (an MIC (in μg/mL) of less or equal to 1 is assigned the letter A)”; in [5], “A (an MIC (in μg/mL) of less or equal to 1 is assigned the letter A)”; in experiment [6], “C (a MIC of from 10 to 100 is assigned the letter C)”. The MIC result in [7] was “B (a MIC of from 1 to 10 is assigned the letter B)”; in [8], “A (an MIC (in μg/mL) of less or equal to 1 is assigned the letter A)”; in [9] it was “A (an MIC (in μg/mL) of less or equal to 1 is assigned the letter A)”; against P. aeruginosa NCTC 13437, “B (a MIC of from 1 to 10 is assigned the letter B)”.

Source of the values: US20190040083A1 (priority 2016, published 2019).
